tested on: P4 G4 (P4-WT RNA); experiment: CD spectra and CD melting of P4-WT with G4-specific ligands; type: binding, SARS-CoV-2; details: P4-WT 1.0 μM, ligand 1.0 μM
Description: For CD spectra and CD melting experiments, the DNA or RNA oligonucleotide samples pre-heated at 95 °C for 10 min were slowly cooled to room temperature, and then were incubated at 4 °C for 24 h. The samples were detected by JASCO J-810 spectropolarimeter equipped with a temperature-controlled water bath. In CD melting experiments, versus temperatures were collected at a heating rate of 1 °C/min.

SMILES | CD peak position of P4 G4 in the presence of ligand
NCCOc1cc(C(=O)Nc2cc(OCCN3CCCC3)c3ccccc3n2)nc(C(=O)Nc2cc(OCCN3CCCC3)c3ccccc3n2)c1 [PDP] | unchanged
C[n+]1ccccc1-c1c2nc(c(-c3cccc[n+]3C)c3ccc([nH]3)c(-c3cccc[n+]3C)c3ccc([nH]3)c(-c3cccc[n+]3C)c3nc1C=C3)C=C2 [TMPyP2] | unchanged
C[n+]1ccc(-c2c3nc(c(-c4cc[n+](C)cc4)c4ccc([nH]4)c(-c4cc[n+](C)cc4)c4nc(c(-c5cc[n+](C)cc5)c5ccc2[nH]5)C=C4)C=C3)cc1 [TMPyP4, 5,10,15,20-tetrakis-(N-methyl-4-pyridyl)porphine] | unchanged

Source: article PMC9447362
